Compound potency records, mixed from different reports. Data source: NIAID ChemDB in PubChem.

Common to all: tests in culture; species: Herpes simplex virus 1; read by: ELISA; read-out: EC50

Lines come from different laboratories, so protocols vary. ECn: concentration that inhibits the pathogen or its effect by n%. Blank or dashed fields: not listed here.

smiles | cells | strain or isolate | result
CC(=O)Nc1ccc(NC(=S)Nc2ccc(N(C)CCO)c(Cl)c2)cc1 | VERO |  | >50 µg/mL
CC(NC(=S)Nc1ccc(NC(=O)c2ccccc2F)cc1)c1ccc(F)cc1 | HFF | Patton | >10 µg/mL
Nc1nc2c(ncn2[C@H]2C[C@]23C[C@H]3CO)c(=O)[nH]1 | BSC-1 |  | >100 µM
OC[C@H]1O[C@@H](n2cnc3cc(Cl)c(Cl)cc32)C[C@@H]1O | HFF |  | >100 µM
OC[C@H]1O[C@@H](n2c(Cl)nc3cc(Cl)c(Cl)cc32)[C@H](O)[C@@H]1O | BSC-1 | KOS | 102 µM
Cc1cc2nc3c4ccccc4n(Cc4ncc[nH]4)c3nc2cc1C | A549 | C42 | 3.8 µM
COc1cc(NC(=O)c2ccccc2F)cc(C)c1NC(=S)NC(C)c1ccc(F)cc1 | VERO |  | >10 µg/mL
NC(=O)CCN(CCC(N)=O)S(=O)(=O)c1cccc(Nc2nc(Nc3cccc(S(=O)(=O)N(CCC(N)=O)CCC(N)=O)c3)nc(Nc3ccc(Nc4ccc(-c5ccc(Nc6ccc(Nc7nc(Nc8cccc(S(=O)(=O)N(CCC(N)=O)CCC(N)=O)c8)nc(Nc8cccc(S(=O)(=O)N(CCC(N)=O)CCC(N)=O)c8)n7)cc6S(=O)(=O)[O-])cc5CO)c(CO)c4)c(S(=O)(=O)[O-])c3)n2)c1 | VERO | Patton | >25 µM
CNc1nc2cc(Cl)c(Cl)cc2n1[C@@H]1O[C@@H](CO)[C@H](O)[C@H]1O | HFF |  | >100 µM
Nc1nc2c(ncn2/C=C2/CC2(CO)CO)c(=O)[nH]1 | BSC-1 |  | 50 µM
Nc1ncc2c(ncn2/C=C2/CC2CO)n1 |  |  | >100 µM
CC(C)Nc1nc2cc(Cl)c(Cl)cc2n1[C@H]1C[C@H](O)[C@@H](CO)O1 | HFF |  | >100 µM
CC[C@@H](N(C)C(=O)[C@@H](NC(=O)[C@@H](CC(=O)[C@@H](NC(=O)[C@H](C(C)C)N(C)C(=O)[C@H](C)CC1CCCCC1)C(C)(C)C)CC(=O)C(C)(C)C)C1(C(=O)O)CCCC1)C(C)(C)C | BHK-21 |  | 0.4 µM
OCCSCc1c(Cl)nc2ccc(Cl)cn12 | BSC-1 | KOS | >100 µM
Nc1ncnc2c1ncn2[C@H]1C[C@]12C[C@@H]2CO | BSC-1 |  | >100 µM
CCCCC/C=C/C/C=C/CCCCCCCC(=O)NC(C)(C)C(=O)N1C[C@@H](O)C[C@H]1C(=O)N[C@@H](CC(C)C)C(=O)N[C@H](C(=O)N[C@@H](CCC(N)=O)C(=O)N[C@@H](CC(C)C)C(=O)OC)C(C)C | VERO |  | 3.4 µM
CCSCc1c(Cl)nc2ccc(Cl)cn12 | BSC-1 | KOS | 20 µM
OC[C@H]1O[C@@H](c2c(Cl)[nH]c3cc(Cl)c(Cl)cc23)[C@H](O)[C@@H]1O | BSC-1 |  | >100 µM
CCCCCCCCCCCCCC(=O)NC(C)(C)C(=O)N1C[C@@H](O)C[C@H]1C(=O)N[C@@H](CC(C)C)C(=O)N[C@H](C(=O)N[C@@H](CCC(N)=O)C(=O)N[C@@H](CC(C)C)C(=O)OC)C(C)C | VERO |  | 2.3 µM
O=C(Nc1ccc(NC(=S)NCCc2cc3ccccc3o2)cc1)c1cc2ccccc2o1 | VERO |  | >10 µg/mL
CSc1nc2cc(Cl)c(Cl)cc2n1[C@H]1C[C@H](O)[C@@H](CO)O1 | HFF |  | >100 µM
COc1cc(OC)c(NC(=S)Nc2ccc(NC=O)cc2Cl)cc1Cl | HFF | E-377 | 9.3 µg/mL
CC(C)Nc1c(C=O)c2cc(Cl)c(Cl)cc2n1[C@@H]1O[C@H](CO)[C@@H](O)[C@H]1O | BSC-1 |  | 35 µM
CCN(CC)CC(=O)Nc1ccc(NC(=S)Nc2ccc(NC(C)=O)cc2)cc1Cl | VERO |  | >10 µg/mL
COC(=O)[C@H](C)NP(=O)(OC[C@H]1C/C1=C/n1cnc2c(OC)nc(N)nc21)Oc1ccccc1 | BSC-1 |  | 2 µM
CC[C@@H](NC(=O)[C@@H](CC(=O)[C@@H](CC(=O)[C@@H](NC(=O)[C@H](C(C)C)N(C)C(=O)[C@H](C)CC1CCCCC1)C(C)(C)C)CC(=O)C(C)(C)C)C1(C(=O)O)CCCC1)C(C)(C)C | BHK-21/C13 | F | 0.35 µM
Nc1nc(NC2CC2)c2ncn(C=C3CC3CO)c2n1 | BSC-1 |  | 15 µM
CN1N=C(N)c2cn([C@@H]3O[C@H](CO)[C@@H](O)[C@H]3O)c3nc(-c4ccccc4)nc1c23 | BSC-1 | KOS | >100 µM
N#Cc1c(Cl)n([C@@H]2O[C@H](CO)[C@@H](O)[C@H]2O)c2cc(Cl)c(Cl)cc12 | BSC-1 |  | 15 µM
C=CCN(c1ccc(NC(=S)Nc2ccc(NC(C)=O)cc2)cc1Cl)C1CCCCC1 | VERO |  | >50 µg/mL
OC[C@@H]1O[C@@H](n2c(Br)nc3cc(Cl)c(Cl)cc32)[C@H](O)[C@H]1O | HFF |  | >100 µM
CN(C)c1cccc(CCNC(=S)Nc2ccc(NC(=O)c3ccccc3F)cc2)c1C(F)(F)F | VERO |  | >10 µg/mL
c1ccc2nc3c(nc2c1)c1ccccc1n3Cc1nccs1 | A549 | C42 | >30 µM
Nc1ncnc2c1ncn2[C@H]1C[C@@]12C[C@@H]2CO | BSC-1 |  | >100 µM
OC[C@H]1O[C@@H](n2c(Cl)nc3cc(Cl)c(Cl)cc32)C[C@@H]1O | HFF |  | 41 µM
CCCCCCCCCCCCCC(=O)NC(C)(C)C(=O)N1C[C@@H](O)CC1C(=O)N[C@@H](CC(C)C)C(=O)N[C@H](C(=O)N[C@@H](CCC(N)=O)C(=O)N[C@H](CO)CC(C)C)C(C)C | VERO |  | 1.1 µM
CN1N=C(N)c2cn([C@@H]3O[C@H](COP(=O)(O)O)[C@@H](O)[C@H]3O)c3ncnc1c23 | BSC-1 | KOS | 20 µM
Nc1ncc2ncn(/C=C3/CC3CO)c2n1 |  |  | >100 µM
CCCCCCCCCC(=O)NC(C)(C)C(=O)N1C[C@@H](O)C[C@H]1C(=O)N[C@@H](CC(C)C)C(=O)N[C@H](C(=O)N[C@@H](CCC(N)=O)C(=O)N[C@@H](CC(C)C)C(=O)OC)C(C)C | VERO |  | 7 µM
CC(=O)n1c(Cl)c([C@@H]2O[C@H](CO)[C@@H](O)[C@H]2O)c2cc(Cl)c(Cl)cc21 | BSC-1 |  | >100 µM
CNc1c(C=O)c2cc(Cl)c(Cl)cc2n1[C@@H]1O[C@H](CO)[C@@H](O)[C@H]1O | BSC-1 |  | 35 µM
Cc1nc2c3c(cn([C@@H]4O[C@H](CO)[C@@H](O)[C@H]4O)c3n1)C(N)=NN2C | BSC-1 | KOS | >100 µM
CCCCCCCCCCCCCCCCCC(=O)NC(C)(C)C(=O)N1C[C@@H](O)C[C@H]1C(=O)N[C@@H](CC(C)C)C(=O)N[C@H](C(=O)N[C@@H](CCC(N)=O)C(=O)N[C@@H](CC(C)C)C(=O)OC)C(C)C | VERO |  | 1.6 µM

For reference, 4 entries again:

smiles,cells,strain or isolate,result
c1ccc2nc3c(nc2c1)c1ccccc1n3Cc1nccs1,A549,C42,>30 µM
Nc1nc2c(ncn2[C@H]2C[C@]23C[C@H]3CO)c(=O)[nH]1,BSC-1,,>100 µM
CCCCC/C=C/C/C=C/CCCCCCCC(=O)NC(C)(C)C(=O)N1C[C@@H](O)C[C@H]1C(=O)N[C@@H](CC(C)C)C(=O)N[C@H](C(=O)N[C@@H](CCC(N)=O)C(=O)N[C@@H](CC(C)C)C(=O)OC)C(C)C,VERO,,3.4 µM
CC(=O)Nc1ccc(NC(=S)Nc2ccc(N(C)CCO)c(Cl)c2)cc1,VERO,,>50 µg/mL